A mixed list of measured activities; the numbers were collected in NIAID ChemDB.

Common to all: tests in culture

MIC50, MIC90 and the like: level of inhibition, or share of isolates inhibited. Zones are inhibition diameters on agar. ECn is the concentration giving n% inhibition of infection, replication or growth. An empty or dashed field is not shown. Two numbers with a dash give a range or band. Percent inhibition refers to the dose given; in toxicity tests it is the harm to the cells. Rows are shuffled and stem from different studies.

SMILES | agent | strain or isolate | cell line | read by | read-out | tested at | result
Nc1ccn([C@@H]2C=C(CO)[C@@H](O)[C@@H]2O)c(=O)n1 | West Nile virus | NEW YORK | VERO | cytopathic effect | EC50 | - | <0.32 µg/mL
O=S(=O)(F)Cc1ccccc1 | Cryptosporidium parvum | - | - | cell count / microscopy | inhibition | 2000 µM | 44.1%
N=C(N)c1ncn([C@@H]2O[C@H](CO)[C@@H](O)[C@H]2O)n1 | West Nile virus | Uganda | VERO | cytopathic effect | EC50 | - | 304 µg/mL
C[C@H]1COc2c(N3CCN(C)CC3)c(F)cc3c(=O)c(C(=O)O)cn1c23 | Streptococcus pneumoniae | 1L1 (PARC mutation SER79PHE) | - | - | MIC | - | 2 µg/mL
NC(=O)c1[nH]nc([C@@H]2O[C@H](CO)[C@@H](O)[C@H]2O)c1O | West Nile virus | Uganda | VERO | cytopathic effect | EC50 | - | 0.5 µg/mL
CC(C)=CCOc1ccc(C2CC(=O)c3c(O)cc(O)cc3O2)cc1 | Candida krusei | - | - | agar diffusion / agar | zone | 100 µg/mL | 0 mm
CC[C@]1(O)C(=O)OCc2c1cc1n(c2=O)Cc2cc3cc4c(cc3nc2-1)OCO4 | Saccharomyces cerevisiae | JHY6-1C | - | - | MIC | - | >100 µg/mL
CN(C)[C@@H]1C(=O)C(C(N)=O)=C(O)[C@@]2(O)C(=O)C3=C(O)c4c(O)c(NC(=O)CNc5ccccc5)cc(F)c4C[C@H]3C[C@@H]12 | Pseudomonas aeruginosa | 111-27853 | - | agar diffusion | EC50 | - | >32 µg/mL
CN(C/C=C/C#CC(C)(C)C)Cc1cccc2ccccc12 | Aspergillus fumigatus | 60 isolates | - | - | Geometric mean MIC | - | 30.55 µg/mL
COc1cc2c(cc1OC)C1OCCCN1c1c-2ccc2cc3c(cc12)OCO3 | Saccharomyces cerevisiae | Mutant ΔERG6 | - | - | MIC | - | 25 µg/mL
Nc1cc2c(ncn2[C@@H]2O[C@H](CO)[C@@H](O)[C@H]2O)c(=O)[nH]1 | West Nile virus | NEW YORK | VERO | cytopathic effect | EC50 | - | >30 µg/mL
CC[C@@]1(OC(=O)CN)C(=O)OCc2c1cc1n(c2=O)Cc2cc3cc(O)ccc3nc2-1 | Saccharomyces cerevisiae | Mutant ΔERG6 ΔTOP1 | - | - | MIC | - | >100 µg/mL
CC(C)=CCOc1ccc(C2CC(=O)c3ccc(O)cc3O2)cc1 | Candida dubliniensis | - | - | agar diffusion / agar | zone | 100 µg/mL | 0 mm
O=c1[nH]c(=O)n([C@@H]2O[C@H](CO)[C@@H](O)[C@H]2O)cc1F | West Nile virus | NEW YORK | VERO | cytopathic effect | EC50 | - | >0.82 µg/mL
CCCN(CCC)c1c([N+](=O)[O-])cc(S(N)(=O)=O)cc1[N+](=O)[O-] | Toxoplasma gondii | Trifluralin-resistant | - | - | EC50 | - | 0.2 µM
CC[C@@]1(O)C(=O)OCc2c1cc1n(c2=O)Cc2cc3cc(O)ccc3nc2-1 | Saccharomyces cerevisiae | JHY6-1C | - | - | MIC | - | >100 µg/mL
C=CCc1ccc(O)c(-c2ccc(O)c(CC=C)c2)c1 | Candida albicans | YL 358 | - | broth dilution | MIC | - | 64 µg/mL
COC(=O)[C@H]1[C@@H]2C[C@@H](O[C@@H]3O[C@H](C)[C@@H](O)[C@H](N)[C@@H]3O)/C=C/C=C/C=C/C=C/C=C/C=C/C=C/[C@H](C)[C@@H](O)[C@H](C)[C@H](C)OC(=O)C[C@H](O)C[C@H](O)[C@@H](O)CC[C@H](O)C[C@H](O)C[C@](O)(C[C@@H]1O)O2 | Vesicular stomatitis virus | - | F6000 | plaque count | inhibition | 50 µg/mL | 0%
Cc1cn(COC2CP(=O)(Oc3ccccc3)OC2C)c(=O)[nH]c1=O | Sandfly fever virus | Sicilian strain Vero cells | - | cytopathic effect | EC50 | - | >320 µg/mL
CC(=O)NC[C@H]1CN(c2ccc(N3CCOCC3)c(F)c2)C(=O)O1 | Staphylococcus aureus | Oxacillin-resistant | - | - | MIC50 | - | 1–4 µg/mL
O=c1[nH]c(=O)n([C@@H]2O[C@H](CO)[C@@H](O)[C@H]2O)[nH]c1=S | West Nile virus | Uganda | VERO | cytopathic effect | EC50 | - | 78 µg/mL
CC[C@@]1(O)C(=O)OCc2c1cc1n(c2=O)Cc2cc3ccccc3nc2-1 | Saccharomyces cerevisiae | Mutant ΔERG6 | - | - | MIC | - | 6.25 µg/mL
CCOP(=O)(O)CC(OCn1ccc(=O)[nH]c1=O)C(C)O | Sandfly fever virus | Sicilian strain Vero cells | - | cytopathic effect | EC50 | - | >320 µg/mL
CC[C@@]1(OC(=O)CN)C(=O)OCc2c1cc1n(c2=O)Cc2c-1nc1cc3c(cc1c2CCl)OCO3 | Saccharomyces cerevisiae | Mutant ΔERG6 ΔTOP1 | - | - | MIC | - | >100 µg/mL
C#CC[C@@H](C(=O)N[C@H](/C=C/C(=O)OCC)C[C@@H]1CCNC1=O)n1cccc(NC(=O)c2cc(C)on2)c1=O | Rhinovirus | Serotype 95 | H1-HELA | cytopathic effect / XTT | inhibition | 0.108 µM | 90%
Cc1cc(=O)c2c(O)c3c(O)cc(O)c4c5c(O)cc(O)c6c(O)c7c(=O)cc(C)c8c1c2c(c34)c(c65)c78 | West Nile virus | NEW YORK | VERO | cytopathic effect | EC50 | - | >50 µg/mL
Nc1ncnc2c1ncn2CCOCP(=O)(O)O | Varicella zoster virus | Oka penciclovir-resistant/B | HEL | cytopathic effect | EC50 | - | 112.7 µM
CC(C)=CCOc1ccc(C2CC(=O)c3c(O)cc(O)cc3O2)cc1O | Candida spp. | Candida inconspicua | - | agar diffusion / agar | zone | 100 µg/mL | 0 mm
O=C1C=CN([C@@H]2O[C@H](CO)[C@@H](O)[C@H]2O)C(=O)C1 | West Nile virus | Uganda | VERO | cytopathic effect | EC50 | - | 40 µg/mL
CC[C@@]1(OC(=O)CN)C(=O)OCc2c1cc1n(c2=O)Cc2cc3cc4c(cc3nc2-1)OCO4 | Saccharomyces cerevisiae | Mutant ΔERG6 ΔTOP1 | - | - | MIC | - | >100 µg/mL
COc1c(C)c2c(c(O)c1C/C=C(\C)CCC(=O)O)C(=O)OC2 | West Nile virus | NEW YORK | MA-104 | virus yield | EC50 | - | <0.3 µg/mL
C[C@H]1NCc2cc(-c3ccc4c(=O)c(C(=O)O)cn(C5CC5)c4c3OC(F)F)ccc21 | Haemophilus influenzae | 17 strains (beta-lactamase-producing) | - | - | MIC90 | - | 0.03 µg/mL

Repeating the final 2 entries:

SMILES	agent	strain or isolate	cell line	read by	read-out	tested at	result
COc1c(C)c2c(c(O)c1C/C=C(\C)CCC(=O)O)C(=O)OC2	West Nile virus	NEW YORK	MA-104	virus yield	EC50	-	<0.3 µg/mL
C[C@H]1NCc2cc(-c3ccc4c(=O)c(C(=O)O)cn(C5CC5)c4c3OC(F)F)ccc21	Haemophilus influenzae	17 strains (beta-lactamase-producing)	-	-	MIC90	-	0.03 µg/mL